Anti-infective test results gathered from many reports (values: NIAID ChemDB through PubChem).

Common to all: tests in culture; organism: HIV-1; read by: cytopathic effect / XTT; measure: inhibition

Percent inhibition refers to the dose given; in toxicity tests it is the harm to the cells. Blank or dashed fields: not listed here. Lines come from different laboratories, so protocols vary.

structure | dose | cells | strain or isolate | result
C=CCNC(=O)NC(=O)CSC1=NNC2(C(=O)N1)c1ccccc1-c1ccccc12 | 63 µM | CEM |  | 15.14%
O=C(CCCN1C(=O)/C(=C/c2cccs2)SC1=S)Nc1ccc(O)c(C(=O)O)c1 | 63 µM | CEM + CEM-SS |  | 39%
C=CCNC(=O)NC1=CSC2=NC(=O)C3(NN12)c1ccccc1-c1ccccc13 | 20 µM | CEM |  | 12.38%
CCCCCCCCCCCCCC(=O)OC[C@H]1O[C@@H](n2cc(C)c(=O)[nH]c2=O)C[C@@H]1O | 2 µM | CEM |  | 13.7%
N#Cc1csc(NC(=O)NCCc2ccccc2)n1 | 10 µg/mL | MT-4 |  | 0%
CC/C=C\C/C=C\C/C=C\CCCCCCCC(=O)OC[C@@H](CO[C@H]1O[C@H](CS(=O)(=O)O)[C@@H](O)[C@H](O)[C@H]1O)OC(=O)CCCCCCCCCCCCCCC | 100 µg/mL | CEM |  | 100%
CCCCNC(=S)C(C#N)c1nc2ccccc2o1 | 20 µM | CEM |  | 36.61%
O=C(Cc1ccccc1)Nn1c(-c2ccccc2)nc2ccccc2c1=O | 200 µM | CEM + CEM-SS | RF | 86.18%
Brc1ccccc1C1SCc2nc3ncccc3n21 | 2.48 µM | CEM | RF | 13%
Oc1ccc2cc1Cc1cc(ccc1O)N=CC1=CC=C(C=Nc3ccc(O)c(c3)Cc3cc(ccc3O)N=CC3=CC=C(C=N2)O3)O1 | 2.5 µg/mL | CEM + CEM-SS | RF | 35%
Cc1nnc(N)nc1/C=C/c1ccc(Cl)cc1Cl | 6.33 µM | CEM |  | 2.28%
O=C1N=C2SC=C(NC(=S)Nc3ccccc3)N2NC12c1ccccc1-c1ccccc12 | 63 µM | CEM | RF | 24.42%
Cc1nnc(N)nc1/C=C/c1c(O)ccc2ccccc12 | 20 µM | CEM |  | 23.94%
Brc1cccc(C2ON=C(c3ccccc3)N2C23CC4CC(CC(C4)C2)C3)c1 | 200 µM | CEM |  | 34.2%
NS(=O)(=O)c1ccc(NC(=O)NCCc2ccccc2)cc1 | 10 µg/mL | MT-4 |  | 22%
Nc1nc2c(ncn2[C@H]2CC[C@@H](CO)O2)c(=O)[nH]1 | 2 µM | ATH-8 + ATH8 | LAI | 75%
O=C(CCN1C(=O)/C(=C/c2ccc3c(c2)OCO3)SC1=S)Nc1ccc(C(=O)O)c(O)c1 | 200 µM | CEM + CEM-SS |  | 19.5%
Cc1cn([C@H]2C[C@H](O)[C@@H](COC(=O)CCCCCCCCCCN=[N+]=[N-])O2)c(=O)[nH]c1=O | 20 µM | CEM |  | 16.3%
c1ccc(C2=NOC(c3ccccc3)N2C23CC4CC(CC(C4)C2)C3)cc1 | 63 µM | CEM |  | 53.58%
O=C(O)c1cc(Cc2ccc(O)c(C(=O)O)c2)ccc1O | 350 µM | CEM | IIIB | 0%
O=C(NCCc1ccccc1)Nc1nc2ccc(Cl)cc2s1 | 1 µg/mL | MT-4 |  | 0%
Clc1ccc(C2ON=C(c3ccccc3)N2C23CC4CC(CC(C4)C2)C3)cc1 | 6.3 µM | CEM |  | 28.71%
CN1CCN(C(=S)NCCc2ccccc2)CC1 | 10 µg/mL | MT-4 |  | 0%
C=CCNC(=O)NC1=CSC2=NC(=O)C3(NN12)c1ccccc1-c1ccccc13 | 63 µM | CEM | RF | 16.15%
O=C(NCCc1ccccc1)Nc1nncs1 | 1 µg/mL | MT-4 |  | 100%
COc1ccc(C2C(C#N)=C(N)N3C(=C2C#N)Oc2ccccc23)cc1 | 20 µM | CEM |  | 5.78%
CCCCCCCCCCCCC(N=[N+]=[N-])C(=O)OC[C@H]1O[C@@H](n2cc(C)c(=O)[nH]c2=O)C[C@@H]1O | 20 µM | CEM |  | 10.9%
C=CCNC(=O)NC(=O)CSC1=NNC2(C(=O)N1)c1ccccc1-c1ccccc12 | 63 µM | CEM | RF | 15.14%
COc1ccc(/C=C2/C(=O)C(c3ccccc3)N(c3ccccc3)C2=O)cc1OC | 0.2 µM | CEM + CEM-SS |  | 94%
S=C(NCCc1ccccc1)N1CCCCC1 | 1 µg/mL | MT-4 |  | 0%
Nc1cccc(CO[C@@H]2[C@H](O)[C@@H](O)[C@@H](OCc3cccc(N)c3)[C@@H](Cc3ccccc3)S(=O)(=O)[C@@H]2Cc2ccccc2)c1 | 0.02 µM | MT-2 | HXB2D | 90%
O=C(NCCc1ccccc1)Nc1ncco1 | 1 µg/mL | MT-4 |  | 0%
S=C1N=C(Cl)C2(NN1)c1ccccc1-c1ccccc12 | 20 µM | CEM |  | 32.82%
C=CSC(NC(=O)[C@H](Cc1ccccc1)NS(=O)(=O)N1CCOCC1)C(=O)N[C@@H](CC1CCCCC1)[C@@H](O)C[C@H](C(=O)NCCCC)C(C)C | 13 µM | CEM | IIIB | 14%
O=C1NC(=S)NNC12c1ccccc1-c1ccccc12 | 200 µM | CEM |  | 12.89%
CN(C)c1ccc(C2ON=C(c3ccccc3)N2C23CC4CC(CC(C4)C2)C3)cc1 | 0.63 µM | CEM |  | 30.81%
O=C1CS/C(=C/c2nc3ccccc3o2)N1 | 2.01 µM | CEM |  | 6.47%
O=C1NC(=S)NNC12c1ccccc1-c1ccccc12 | 200 µM | CEM | RF | 12.89%
Cc1nnc(N)nc1/C=C/c1cccs1 | 0.00635 µM | CEM |  | 1.52%
Fc1cccc(F)c1C1SCc2nc3ncccc3n21 | 62 µM | CEM | RF | 92%
O=C(NCCc1ccccc1)Nc1ccccn1 | 1 µg/mL | MT-4 |  | 0%
N#C/C(=C1\SC(=O)CN1c1ccccc1)c1nc2ccccc2o1 | 6.34 µM | CEM |  | 4.26%
Clc1cccc(Cl)c1C1SCc2nc3ncccc3n21 | 63 µM | CEM | RF | 89%
FC(F)(F)c1ccc(C2ON=C(c3ccccc3)N2C23CC4CC(CC(C4)C2)C3)cc1 | 2 µM | CEM |  | 20.45%
Nc1nc(=O)n([C@H]2C=C[C@@H](OCP(=O)(O)O)O2)cc1I | 100 µg/mL | CEM | IIIB | 39%
CC1(C)SCc2nc3ncccc3n21 | 386 µM | CEM | RF | 41%

4 of the rows above, restated:

structure	dose	cells	strain or isolate	result
Fc1cccc(F)c1C1SCc2nc3ncccc3n21	62 µM	CEM	RF	92%
CCCCNC(=S)C(C#N)c1nc2ccccc2o1	20 µM	CEM		36.61%
Nc1nc2c(ncn2[C@H]2CC[C@@H](CO)O2)c(=O)[nH]1	2 µM	ATH-8 + ATH8	LAI	75%
C=CCNC(=O)NC(=O)CSC1=NNC2(C(=O)N1)c1ccccc1-c1ccccc12	63 µM	CEM	RF	15.14%